≈ marks a conversion by molar mass, not a printed value.

We go through four compounds from ChEMBL document CHEMBL1926580, “Identification and development of 2,5-disubstituted oxadiazole as potential candidate for treatment of XDR and MDR tuberculosis” (2012).

Assay [1] deals with Mycobacterium tuberculosis. In words: Antimycobacterial activity against isoniazid, rifampin, streptomycin and ethambutol-resistant Mycobacterium tuberculosis TN1811 assessed as intracellular ATP level after 5 days by luminescence assay.
Assay [2] concerns Mycobacterium tuberculosis. As to the kind of experiment: Antimycobacterial activity against isoniazid, streptomycin, ethambutol and pyrazinamide-resistant Mycobacterium tuberculosis TN702 assessed as intracellular ATP level after 5 days by luminescence assay.
Assay [3] relates to Mycobacterium tuberculosis. In words: Antimycobacterial activity against isoniazid, rifampin and ethambutol-resistant Mycobacterium tuberculosis TN772 assessed as intracellular ATP level after 5 days by luminescence assay.
Assay [4] concerns Mycobacterium tuberculosis. In words: Antimycobacterial activity against isoniazid, rifampin, streptomycin, ethambutol, ethionamide and kanamycin-resistant Mycobacterium tuberculosis TN576 assessed as intracellular ATP level after 5 days by luminescence assay.
Assay [5] has as its system Mycobacterium tuberculosis. As to the kind of experiment: Antimycobacterial activity against rifampin, streptomycin, ethambutol, ethionamide, kanamycin and ciprofloxacin-resistant Mycobacterium tuberculosis TN565 assessed as intracellular ATP level after 5 days by luminescence assay.
The test system of assay [6] is Mycobacterium tuberculosis. In words: Antimycobacterial activity against isoniazid, rifampin, streptomycin, ethambutol and capreomycin-resistant Mycobacterium tuberculosis TN2557 assessed as intracellular ATP level after 5 days by luminescence assay.
In assay [7] the test system is Mycobacterium tuberculosis. In words: Antitubercular activity against Mycobacterium tuberculosis H37Rv ATCC 27294 assessed as intracellular ATP level after 5 days by luminescence assay. Format: functional. An outline of the steps: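 Growth inhibition of M. tuberculosis H37Rv reported as MIC50. Compounds were dissolved in 90% DMSO (stock), twofold serially diluted in duplicate to 10 concentrations, and spotted into 384-well plates. Assays were run at least twice.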

For assay [8], the system named is Mycobacterium tuberculosis. In words: Antimycobacterial activity against isoniazid, rifampin, streptomycin, ethambutol and ethionamide-resistant Mycobacterium tuberculosis TN768 assessed as intracellular ATP level after 5 days by luminescence assay.
For assay [9], the system named is Mycobacterium tuberculosis. In words: Antimycobacterial activity against isoniazid, rifampin, ethambutol and pyrazinamide-resistant Mycobacterium tuberculosis TN715 assessed as intracellular ATP level after 5 days by luminescence assay.
Assay [10] has as its system Mycobacterium tuberculosis. As to the kind of experiment: Antimycobacterial activity against isoniazid, rifampin, streptomycin, ethambutol, ethionamide, kanamycin and ciprofloxacin-resistant Mycobacterium tuberculosis TN1618 assessed as intracellular ATP level after 5 days by luminescence assay.
Assay [11] has as its system Mycobacterium tuberculosis. Particulars: E8133.
In assay [12] the test system is Mycobacterium tuberculosis. In words: Antimycobacterial activity against isoniazid, streptomycin and ethambutol-resistant Mycobacterium tuberculosis TN1195 assessed as intracellular ATP level after 5 days by luminescence assay.
For assay [13], the system named is Mycobacterium tuberculosis. As to the kind of experiment: Antimycobacterial activity against isoniazid and rifampin-resistant Mycobacterium tuberculosis TN1314 assessed as intracellular ATP level after 5 days by luminescence assay.

Take `ClCCSc1nnc(Cc2ccc(Cl)cc2Cl)o1`: the minimum inhibitory concentration (MIC) in [1] is 0.03 mg/L (≈ 0.0927 µM); in assay [2], 0.25 mg/L (≈ 0.772 µM); in [3], 0.03 mg/L (≈ 0.0927 µM); in assay [4] it was 0.06 mg/L (≈ 0.185 µM); in [5], 0.06 mg/L (≈ 0.185 µM); in assay [6], 0.13 mg/L (≈ 0.402 µM). Besides, the MIC amounted to 0.013 mg/L (≈ 0.0402 µM) in assay [7]; 0.06 mg/L (≈ 0.185 µM) in assay [8]; 0.06 mg/L (≈ 0.185 µM) in [9]; 0.06 mg/L (≈ 0.185 µM) in [10]; 0.13 mg/L (≈ 0.402 µM) in assay [11]; 0.25 mg/L (≈ 0.772 µM) in [12]. Moreover, in [13], the MIC was 0.03 mg/L (≈ 0.0927 µM). Besides, the MBC90 in assay [7] is 1.25 µM (≈ 0.405 µg/mL). Moreover, in assay [7], the MIC50 stood at 0.04 µM (≈ 0.0129 µg/mL).

For `O=[N+]([O-])c1cccc(OCc2nnc(SCCCl)o2)c1`, in assay [7], the MBC90 came out at 1.25 µM (≈ 0.395 µg/mL) and the MIC50 came out at 0.19 µM (≈ 0.06 µg/mL).

With `O=[N+]([O-])c1cccc(Cc2nnc(SCCCl)o2)c1`, in [7], the MBC90 is 1.25 µM (≈ 0.375 µg/mL) and the MIC50 was determined as 0.2 µM (≈ 0.0599 µg/mL).

Regarding `ClCCSc1nnc(COc2ccc(Cl)cc2Cl)o1`, in [7], the MBC90 came to 1.25 µM (≈ 0.425 µg/mL) and the MIC50 is 0.11 µM (≈ 0.0374 µg/mL).
